Experiment [1] relates to IL-10 in human PBMC. The format is cell-based.
Experiment [2] addresses T1, soluble CD28 (sCD28) (Homo sapiens, UniProt P10747).
T1 construct: comprise the extracellular 37-162, 19-152, 21-141, 24-167 and 20-239 amino acid, respectively, of the mature human ligands domain; purchased R&D Systems 342-CD; host or cells: mouse myeloma NS0 cells
The following applies: at 37° C.; read-out: KD of sCD28 for sB7-2 reported by Collins et al.; cited from earlier work.

B1: sB7-2: soluble recombinant B7-2 extracellular domain fused to His6-tagged Fc region of human IgG (R&D Systems 141-B2) (protein)
chain: LSGAAPLKIQAYFNETADLPCQFANSQNQSLSELVVFWQDQENLVLNEVYLGKEKFDSVHSKYMGRTSFDSDSWTLRLHNLQIKDKGLYQCIIHHKKPTGMIRIHQMNSELSVLANFSQPEIVPISNITENVYINLTCSSIHGYPEPKKMSVLLRTKNSTIEYDGVMQKSQDNVTELYDVSISLSVSFPDVTSNMTIFCILETDKTRLLSSPFSIELEDP
modifications: left off: a dimerising Fc or GST; small tags and cut ends
Turning to B1, the “induction of IL-10 by the substance alone” value in experiment [1] is listed as “failed to induce IL-10 to levels comparable to those obtained in the presence of anti-CD3”. Moreover, in experiment [2], the Kd – broadly, the constant that tells how readily two partners part at equilibrium – was 20 µM.

Values taken from patent US8535672B2, “Broad-spectrum in-vivo effective superantigen toxin antagonists based on the interaction between CD28 and the superantigen and uses thereof” (Yissum Research Development of the Hebrew University of …, priority 2003, dated 2013).
